A mixed list of measured activities; the numbers were collected in NIAID ChemDB.

Shared fields: tests in culture; organism: Mycobacterium avium complex

ECn is the concentration giving n% inhibition of infection, replication or growth. Conditions beyond the fields shown may differ between rows. Blank or dashed fields: not listed here. Inhibition is in % at the dose shown (toxicity tests: loss of growth or viability).

N[C@@H]1CONC1=O ; read-out: inhibition ; read by: agar ; strain: 155 strains ; dose: 30 µg/mL ; result: 6.5%
C[C@@H]1CN(c2c(F)c(N)c3c(=O)c(C(=O)O)cn(C4CC4)c3c2F)C[C@H](C)N1 ; read-out: MIC ; strain: N-979 (HIV+) ; result: 0.25 µg/mL
CC[C@H]1OC(=O)[C@H](C)[C@@H](O[C@H]2C[C@@](C)(OC)[C@@H](OC(C)=O)[C@H](C)O2)[C@H](C)[C@@H](O[C@@H]2O[C@H](C)C[C@H](N(C)C)[C@H]2OC(=O)NNCCc2ccccc2)C(C)(O)C[C@@H](C)/C(=N\OCCCC2CCCCC2)[C@H](C)[C@@H](O)[C@]1(C)O ; read-out: MIC ; strain: 20092 (clarithromycin-resistant) ; result: 1.56 µg/mL
CC1(C)N=C(N)N=C(N)N1OCCCOc1cc(Cl)c(Cl)cc1Cl ; read-out: MIC ; strain: 3009 ; result: 4 µg/mL
CC[C@H]1OC(=O)[C@H](C)[C@@H](O[C@H]2C[C@@](C)(OC)[C@@H](O)[C@H](C)O2)[C@H](C)[C@@H](O[C@@H]2O[C@H](C)C[C@H](N(C)C)[C@H]2O)[C@](C)(OC)C[C@@H](C)C(=O)[C@H](C)[C@@H](O)[C@]1(C)O ; read-out: MIC ; strain: N-981 (HIV+) ; result: 2 µg/mL
CCc1cc(C(N)=S)ccn1 ; read-out: EC50 ; read by: agar ; strain: 97 strains ; result: >10 µg/mL
CC[C@H]1OC(=O)[C@H](C)[C@@H](OC(=O)Cc2ccc[nH]2)[C@H](C)[C@@H](O[C@@H]2O[C@H](C)C[C@H](N(C)C)[C@H]2O)C(C)(O)C[C@@H](C)/C(=N\OCCCOc2ccccc2)[C@H](C)[C@@H](O)[C@]1(C)O ; read-out: MIC ; strain: 20096 (clarithromycin-resistant) ; result: 6.25 µg/mL
CO[C@H]1/C=C/O[C@@]2(C)Oc3c(C)c(O)c4c(=O)c(c5oc6cc(N7CCN(CC(C)C)CC7)cc(=O)c6nc5c4c3=C2O)NC(=O)/C(C)=C\C=C\[C@H](C)[C@H](O)[C@@H](C)[C@@H](O)[C@@H](C)[C@H](OC(C)=O)[C@@H]1C ; read-out: MIC ; strain: N-269 (HIV-) ; result: 0.0625 µg/mL
CC[C@H]1OC(=O)[C@H](C)[C@@H](O[C@H]2C[C@@](C)(OC)[C@@H](OC(C)=O)[C@H](C)O2)[C@H](C)[C@@H](O[C@@H]2O[C@H](C)C[C@H](N(C)C)[C@H]2OC(=O)NNCc2ccc(OC)cc2)C(C)(O)C[C@@H](C)/C(=N\OCCCC2CCCCC2)[C@H](C)[C@@H](O)[C@]1(C)O ; read-out: MIC ; strain: 20096 (clarithromycin-resistant) ; result: 0.78 µg/mL
CO[C@H]1/C=C/O[C@@]2(C)Oc3c(C)c(O)c4c(O)c(c5c(c4c3C2=O)NC2(CCN(CC(C)C)CC2)N=5)=NC(=O)/C(C)=C\C=C\[C@H](C)[C@H](O)[C@@H](C)[C@@H](O)[C@@H](C)[C@H](OC(C)=O)[C@@H]1C ; read-out: MIC ; strain: N-978 (HIV+) ; result: 0.8 µg/mL
C[C@@H]1CN(c2c(F)c(N)c3c(=O)c(C(=O)O)cn(C4CC4)c3c2F)C[C@H](C)N1 ; read-out: MBC ; strain: Isolate 90-0731 ; result: 2 µg/mL
CC[C@H]1OC(=O)[C@H](C)[C@@H](OC2C[C@@](C)(OC)[C@@H](O)[C@H](C)O2)[C@H](C)[C@@H](O[C@@H]2O[C@H](C)C[C@H](N(C)C)[C@H]2O)C(C)(O)C[C@@H](C)/C(=N\OCCOc2ccccc2)[C@H](C)[C@@H](O)[C@]1(C)O ; read-out: MIC ; strain: 20096 (clarithromycin-resistant) ; result: 25 µg/mL
CCc1nc(N)nc(N)c1-c1ccc(Cl)cc1 ; read-out: MIC ; strain: DW23 ; result: 64 µg/mL
CC[C@H]1OC(=O)[C@H](C)[C@@H](O[C@H]2C[C@@](C)(OC)[C@@H](OC(C)=O)[C@H](C)O2)[C@H](C)[C@@H](O[C@@H]2O[C@H](C)C[C@H](N(C)C)[C@H]2OC(=O)NNCCCCc2ccccc2)C(C)(O)C[C@@H](C)/C(=N\OCCCC2CCCCC2)[C@H](C)[C@@H](O)[C@]1(C)O ; read-out: MIC ; strain: 20039 (clarithromycin-susceptible) ; result: 1.56 µg/mL
CC1(C)N=C(N)N=C(N)N1OCCCOc1cc(Cl)c(Cl)cc1Cl ; read-out: MIC ; strain: DW9 ; result: 2 µg/mL

A second listing of 2 rows from above:

structure | read-out | read by | strain | dose | result
N[C@@H]1CONC1=O | inhibition | agar | 155 strains | 30 µg/mL | 6.5%
CC[C@H]1OC(=O)[C@H](C)[C@@H](O[C@H]2C[C@@](C)(OC)[C@@H](OC(C)=O)[C@H](C)O2)[C@H](C)[C@@H](O[C@@H]2O[C@H](C)C[C@H](N(C)C)[C@H]2OC(=O)NNCc2ccc(OC)cc2)C(C)(O)C[C@@H](C)/C(=N\OCCCC2CCCCC2)[C@H](C)[C@@H](O)[C@]1(C)O | MIC | - | 20096 (clarithromycin-resistant) | - | 0.78 µg/mL